For orientation: inhibition means the percentage by which the read-out fell short of the control.

Structures are written as SMILES. Only a part is listed here, and it is no random draw. Activity calls are given as the source filed them.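 Rule for the calls: active = inhibition above 30% at one or more concentrations, seen consistently on every test date; inconclusive = results that disagree between repeat test dates; inactive = the rest.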

The nature of this experiment: GST-antibody interaction or FRET quenching – biochemical, TR-FRET, artefact control for Vif-APOBEC3G degradation inhibitor project, dose response (AID 1117362).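 Note: biotinylated GST protein used in place of GST-Vif 1-94 and biotin-A3G peptide; detects fluorescence quenchers or blockers of GST binding to anti-GST antibody.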 The settings on record: TR-FRET counter screen, biotin-GST/anti-GST signal; at 100 µM (top of the series). On the technique in general: Time-resolved FRET reads energy transfer from a long-lived donor to a nearby acceptor.
As to `O=[N+]([O-])c1cccc(NC2=NCC(CBr)S2)c1` (stereo unspecified), the inhibition was inactive: 2.48%.

(Values after PubChem BioAssay AID1117362 (Southern Research Institute, 2015).)
